The test in a line: liver-stage malaria parasite growth inhibition, primary screen, cell-based, HepG2, luciferase luminescence, HepG2 viability (AID 624349).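 Also: 100% = mean of DMSO negative control wells on the same plate.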 The note with it: P. berghei liver stage in HepG2, luciferase luminescence; stronger effect = lower value; concentration not given here.

Molecules are shown by their SMILES. “And” between values parts separate entries of the source, which are not always exact repeats. Identical values can stand only once. The list shows a part of the results, in another mix than the full data. The source made the active and inactive calls. Rule as the data show it: active = parasite load remaining mostly below about 12% (no sharp cut-off); inactive = mostly above about 10%.

As for `OCCSCCO`, the parasite load remaining is inactive: 162%. The figure for `C/C1=C2N=C(/C=C3N=C(/C(C)=C4\[N-][C@@](C)([C@@H]5N=C1[C@](C)(CCC(=O)NC[C@@H](C)OP(=O)([O-])O[C@H]1[C@@H](O)[C@@H](n6cnc7cc(C)c(C)cc76)O[C@@H]1CO)[C@H]5CC(N)=O)[C@@](C)(CC(N)=O)[C@@H]4CCC(N)=O)[C@@](C)(CC(N)=O)[C@@H]\3CCC(N)=O)C(C)(C)[C@@H]/2CCC(N)=O.[C-]#N.[Co+3]` is inactive: 122% and inactive: 85.3%.

Values taken from PubChem BioAssay.
